T1: HIV-1 fusion peptide FP15 (Env residues 512-526, most common sequence) (HIV-1 Env fusion peptide 512-526, most …)
T1 construct: source: peptide microarray (PEPperPRINT)
T1 chain: AVGIGAVFLGFLGAA


Biological target: T1, HIV-1 fusion peptide FP15 (Env residues …)
Experiment: peptide or protein array
Conditions: both partners purified

Binder	binding result
vFP16.02 IgG (antibody, V domains shown, source: Expi293, transfected, purified (protein A)) VH: QVQLLQSGAELVRPGASVTLSCKASGYAFSDYEIHWVKQTPVRGLDWIGAFDPKSGASASNQKVKGRAILTADKSSSTAYMELRSLTSEDSAVYYCTRLRYFGYFDVWGTGTTVTVSS VL: DVLMTQTPLSLPVSLGGQASISCRSSQSVVYSDGDTYLEWYLQKPGQSPKLLIYKVSRRFSGVPDRFSGSGSGTDFTLKISRVETEDLGVYYCFQGSHVPYTFGGGTKLEIK	binds
PGT151 IgG (antibody, V domains shown, source: Expi293, transfected, purified (protein A)) VH: RVQLVESGGGVVQPGKSVRLSCVVSDFPFSKYPMYWVRQAPGKGLEWVAAISGDAWHVVYSNSVQGRFLVSRDNVKNTLYLEMNSLKIEDTAVYRCARMFQESGPPRLDRWSGRNYYYYSGMDVWGQGTTVTVSS VL: DIVMTQTPLSLSVTPGQPASISCKSSESLRQSNGKTSLYWYRQKPGQSPQLLVFEVSNRFSGVSDRFVGSGSGTDFTLRISRVEAEDVGFYYCMQSKDFPLTFGGGTKVDLK	binds
N123-VRC34.01 IgG (antibody, V domains shown, source: Expi293, transfected, purified (protein A)) VH: QEVLVQSGAEVKKPGASVKVSCRAFGYTFTGNALHWVRQAPGQGLEWLGWINPHSGDTTTSQKFQGRVYMTRDKSINTAFLDVTRLTSDDTGIYYCARDKYYGNEAVGMDVWGQGTSVTVSS VL: IQLTQSPSFLSASVGDKVTITCRASQGVRNELAWYQQKPGKAPNLLIYYASTLQSGVPSRFSATGSGTHFTLTVSSLQPEDFATYFCQHMSSYPLTFGGGTKVEIK	binds
